Experimental data from US20090311265A1 (CRUCELL HOLLAND B V, published 2009).

B1: CR6342 (antibody, V domains shown)
VH: QVQLVQSGAEVKKPGSSVKVSCKASGGFFSSYAISWVRQAPGQGLEWMGGVIPIFRTANYAQNFQGRVTITADEFTSYMELSSLRSDDTAVYYCARLNYHDSGTYYNAPRGWFDPWGQGTLVTVSS
VL: DIQMTQSPDSLAVSLGEKATINCKSSQSILNSSNNKNYLAWYQQKPGQPPKLLIYWASTRESGVPDRFSGSGSGTDFTLTISSLQAEDVAVYYCQQYYSSPPTFGQGTKVEIKR
B2: CR6325 (antibody, V domains shown)
VH: EVQLVESGAEVKKPGSSVKVSCKASGGTFSFYSMSWVRQAPGQGLEWMGGIIPMFGTTNYAQKFQGRVTITAVESTSTAYMEVSSLRSEDTAVYYCARGDKGIYYYYMDVWGKGTTVTVSS
VL: QSALTQPASVSGSPGQSITISCTGTSSDVGGYNYVSWYQQHPGKAPKLMIYEVSNRPSGVSNRFSGSKSGNTASLTISGLQAEDEADYYCSSYTSSSTLVFGTGTKVTVLG
B3: CR6329 (antibody, V domains shown)
VH: EVQLVQSGAEVKKPGSSVKVSCKASGGIFRSNSISWVRQAPGQGLEWMGGIFALFGTTDYAQKFQGRVTITADESSTTVYLELSSLTSEDTAVYYCARGSGYTTRNYFDYWGQGTLVTVSS
VL: EIVLTQSPGTLSLSPGERATLSCRASQSVSSNYLGWYQQKPGQAPRLLIYGASSRASGIPDRFSGGGSGTDFTLTISRLEPEDFAVYYCQQYGSSPLTFGGGTKVEIKR

Columns and labels:
[1] = biological target: recombinant HA, subtype H5 (A/Vietnam/1203/2004 (H5N1)) (influenza A virus A/Vietnam/1203/2004 …, UniProt Q80A26 6-554); test: ELISA, coated HA, IgG 5 µg/ml
[2] = biological target: recombinant HA, subtype H1 (A/New Caledonia/20/99 (H1N1)) (influenza A virus A/New Caledonia/20/99 …, UniProt Q289M7 18-565); test: ELISA, coated HA, IgG 5 µg/ml

Row | Binder | OD 492 nm [1] [OD 492 nm] | OD 492 nm [2] [OD 492 nm]
1 | B1 | 1.25 | 1.99
2 | B2 | 1.3 | 1.42
3 | B3 |  | 1.98
